According to patent US20160304570A1, “Potent and selective inhibitors of nav1.3 and nav1.7” (published 2016):
Substitutions are numbered along the chain they refer to.

B1: [Val5;Phe6]GpTx-1(1-34) (peptide)
peptide: DCLGVFRKCIPDNDKCCRPNLVCSRTHKWCKYVF
modifications: not checked
B2: [D-Ala5;Leu6]GpTx-1(1-34) (peptide)
peptide: B1 peptide with V5A, F6L
modifications: not checked
B3: [Met5;Leu6]GpTx-1(1-34) (peptide)
peptide: B1 peptide with V5M, F6L
modifications: not checked
B4: [Ala5;Phe6;Asp10]GpTx-1(1-34) (peptide)
peptide: B1 peptide with V5A, I10D
modifications: not checked
B5: [Ala5;Phe6;Glu12]GpTx-1(1-34) (peptide)
peptide: B1 peptide with V5A, D12E
modifications: not checked
B6: [Ala5;Phe6;Glu10]GpTx-1(1-34) (peptide)
peptide: B1 peptide with V5A, I10E
modifications: not checked
B7: [Ala5;Leu6;Glu12]GpTx-1(1-34) (peptide)
peptide: B1 peptide with V5A, F6L, D12E
modifications: not checked
B8: [Ala5;Leu6;Glu28]GpTx-1(1-34) (peptide)
peptide: B1 peptide with V5A, F6L, K28E
modifications: not checked
B9: [Ala5,25;Leu6]GpTx-1(1-34) (peptide)
peptide: B1 peptide with V5A, F6L, R25A
modifications: not checked
B10: [Ala5;Phe6;Glu25]GpTx-1(1-34) (peptide)
peptide: B1 peptide with V5A, R25E
modifications: not checked
B11: [Asp28]GpTx-1(1-34) (peptide)
peptide: B1 peptide with V5F, F6M, K28D
modifications: not checked
B12: [Gly5;Phe6;Glu10]GpTx-1(1-34) (peptide)
peptide: B1 peptide with V5G, I10E
modifications: not checked
B13: [Gln28]GpTx-1(1-34) (peptide)
peptide: B1 peptide with V5F, F6M, K28Q
modifications: not checked
B14: [Ala5;Tyr28]GpTx-1(1-34) (peptide)
peptide: B1 peptide with V5A, F6M, K28Y
modifications: not checked
B15: [Ala5;Leu28]GpTx-1(1-34) (peptide)
peptide: B1 peptide with V5A, F6M, K28L
modifications: not checked
B16: [Ala5;Asn28]GpTx-1(1-34) (peptide)
peptide: B1 peptide with V5A, F6M, K28N
modifications: not checked
B17: [Ala5;Glu26]GpTx-1(1-34) (peptide)
peptide: B1 peptide with V5A, F6M, T26E
modifications: not checked

Each binder was assayed against human voltage-gated sodium channel Nav1.3 (human), Q9NY46 (assay: cell-based or functional assay).

Binder	IWQ Use Nav1.3 (µM), IC50 of peak inward current	IWQ Use Nav1.3 (µM); IC50 of peak inward current, IonWorks Quattro	IWQ Use Nav1.3 (µM) (IC50, IonWorks Quattro population patch clamp)	IC50, IWQ Use Nav1.3	IWQ Use Nav1.3 IC50 (IonWorks Quattro electrophysiology)	IWQ Use Nav1.3
B1	0.099 µM	–	–	–	–	–
B2	11.5 µM	–	–	–	–	–
B3	–	0.24 µM	–	–	–	–
B4	–	0.37 µM	–	–	–	–
B5	–	0.2 µM	–	–	–	–
B6	–	–	0.32 µM	–	–	–
B7	–	–	0.58 µM	–	–	–
B8	–	–	6.6 µM	–	–	–
B9	–	–	2.8 µM	–	–	–
B10	–	–	–	3.6 µM	–	–
B11	–	–	–	0.77 µM	–	–
B12	–	–	–	0.33 µM	–	–
B13	–	–	–	–	0.27 µM	–
B14	–	–	–	–	1.4 µM	–
B15	–	–	–	–	2.7 µM	–
B16	–	–	–	–	3.2 µM	–
B17	–	–	–	–	–	> 5 µM

What follows are binders tested against human voltage-gated sodium channel Nav1.7 (human), Q15858 (assay: cell-based or functional assay).

Binder	IWQ Use Nav1.7 (µM), IC50 of peak inward current	IWQ Use Nav1.7 (µM); IC50 of peak inward current, IonWorks Quattro	Nav1.7 Use IC50 (PatchXpress electrophysiology)	Nav1.7 Use IC50 (µM), PatchXpress electrophysiology	IWQ Use Nav1.7 (µM) (IC50, IonWorks Quattro population patch clamp)	IC50, IWQ Use Nav1.7	Nav1.7/Nav1.3 (ratio of IWQ Use IC50, Nav1.7 against Nav1.3)	IWQ Use Nav1.7 IC50 (IonWorks Quattro electrophysiology)	IWQ Use Nav1.7
B1	0.12 µM	–	–	–	–	–	–	–	–
B2	10.7 µM	–	–	–	–	–	–	–	–
B3	–	0.069 µM	0.27 µM	–	–	–	–	–	–
B4	–	0.72 µM	–	0.04 µM	–	–	–	–	–
B5	–	0.61 µM	0.028 µM	–	–	–	–	–	–
B6	–	–	–	0.079 µM	0.38 µM	–	–	–	–
B7	–	–	–	0.021 µM	0.35 µM	–	–	–	–
B8	–	–	–	–	1.6 µM	–	–	–	–
B9	–	–	–	–	0.6 µM	–	–	–	–
B10	–	–	–	–	–	1.5 µM	–	–	–
B11	–	–	0.015 µM	–	–	0.73 µM	–	–	–
B12	–	–	–	–	–	0.35 µM	1.1 fold	–	–
B13	–	–	0.004 µM	–	–	–	–	0.19 µM	–
B14	–	–	–	–	–	–	–	0.79 µM	–
B15	–	–	–	–	–	–	–	1.1 µM	–
B16	–	–	–	–	–	–	–	1.7 µM	–
B17	–	–	–	–	–	–	–	–	> 5 µM

The binders below were run against human voltage-gated sodium channel Nav1.5 (human), Q14524 (assay: cell-based or functional assay).

Binder	IWQ Use Nav1.5 (µM), IC50 of peak inward current	IWQ Use Nav1.5 (µM); IC50 of peak inward current, IonWorks Quattro	Nav1.5 Use IC50 (PatchXpress electrophysiology)	Nav1.5 Use IC50 (µM), PatchXpress electrophysiology	IWQ Use Nav1.5 (µM) (IC50, IonWorks Quattro population patch clamp)	IC50, IWQ Use Nav1.5	IWQ Use Nav1.5 IC50 (IonWorks Quattro electrophysiology)	IWQ Use Nav1.5
B1	9.4 µM	–	–	–	–	–	–	–
B2	7.1 µM	–	–	–	–	–	–	–
B3	–	> 5 µM	> 10 µM	–	–	–	–	–
B4	–	43 µM	–	> 10 µM	–	–	–	–
B5	–	45 µM	> 10 µM	–	–	–	–	–
B6	–	–	–	> 10 µM	36 µM	–	–	–
B7	–	–	–	> 10 µM	> 50 µM	–	–	–
B8	–	–	–	–	43 µM	–	–	–
B9	–	–	–	–	38 µM	–	–	–
B10	–	–	–	–	–	41 µM	–	–
B11	–	–	> 10 µM	–	–	37.9 µM	–	–
B12	–	–	–	–	–	34.2 µM	–	–
B13	–	–	> 10 µM	–	–	–	22.7 µM	–
B14	–	–	–	–	–	–	42 µM	–
B15	–	–	–	–	–	–	49.3 µM	–
B16	–	–	–	–	–	–	> 50 µM	–
B17	–	–	–	–	–	–	–	27.3 µM
